Test results published in paper PMC12406681 (Antimicrobial Agents and Chemotherapy, 2025).
Read-outs that look alike come from different tables or passages of the source.

Legend:
LACV [1] = details: cited from earlier work
LACV [2] = assay: CPE-based antiviral activity assay (MTT) in Vero cells; format: cell-based, La Crosse virus; details: EC50 ratio, original stock virus
LACV [3] = assay: CPE-based antiviral activity assay (MTT) in SH-SY5Y cells; format: cell-based, La Crosse virus; details: EC50 ratio, original stock virus
LACV passage control WT [4] = assay: CPE-based antiviral activity assay in Vero cells, passage control WT; format: cell-based, La Crosse virus; details: EC50 ratio
LACV [5] = assay: Time-of-addition assay in Vero cells (qRT-PCR); format: cell-based, La Crosse virus; details: 8 hpi, antibody 3 µg/mL, T-705 200 µM, CAPCA-1 10 µM
LACV passage control WT [6] = details: EC50 ratio, SH-SY5Y cells
LACV [7] = assay: LACV footpad infection mouse model; details: 60 mg/kg/day s.c. q.d., 6 dpi
LACV [8] = assay: Viral titer reduction assay in Vero cells (plaque assay); details: MOI 0.01, plaque assay at 32 hpi
LACV [9] = assay: Immunofluorescence assay for LACV Gc protein in Vero cells; details: MOI 0.01, 32 hpi
LACV [10] = assay: Viral titer reduction assay in SH-SY5Y cells (plaque assay); details: MOI 0.001, plaque assay at 48 hpi
LACV [11] = assay: Lethal LACV infection mouse model, intraperitoneal infection

Q: Which “Incidence of neurological disease in LACV-infected mice” value (LACV [1]) does the source give for `CC(=O)c1c(O)c(C)c(O)c(Cc2c(O)c3c(c(C(=O)/C=C/c4ccccc4)c2O)OC(C)(C)C=C3)c1O` here?
A: decreased the incidence of neurological disease

Q: Which “Incidence of neurological disease in LACV-infected mice” value (LACV [1]) does the source give for `CC(C)C(=O)OC[C@H]1O[C@@H](n2ccc(NO)nc2=O)[C@H](O)[C@@H]1O` here?
A: decreased the incidence of neurological disease

Q: For `CC(C)N1CN(C2c3ccccc3CCc3ccccc32)n2cc(C(=O)O)c(=O)c(O)c2C1=O` [CAPCA-1, carbamoyl pyridone carboxylic acid (CAPCA)-1], which “Fold change (/original stock)” value (LACV [2]) is on record?
A: 1.00

Q: And the “Fold change (/passage control)” value (LACV [2])?
A: 0.54

Q: What about the “Fold change (/original stock)” value (LACV [3]) of the same compound?
A: 1.00

Q: What about the “Fold change (/passage control)” value (LACV [3]) of the same compound?
A: 1.46

Q: What about the “Fold change (/original stock)” value (LACV passage control WT [4]) of the same compound?
A: 1.84

Q: And the “Fold change (/passage control)” value (LACV passage control WT [4])?
A: 1.00

Q: And the “Viral RNA levels, post-entry treatment” value (LACV [5])?
A: significantly reduced the viral RNA levels

Q: And the “Fold change (/original stock)” value (LACV passage control WT [6])?
A: 0.68

Q: What about the “Fold change (/passage control)” value (LACV passage control WT [6]) of the same compound?
A: 1.00

Q: What about the “Viral RNA in the blood” value (LACV [7]) of the same compound?
A: tended to be lower

Q: And the “Viral RNA levels in the brain” value (LACV [7])?
A: significant reduction of viral RNA levels

Q: And the “Viral RNA levels in the spleen” value (LACV [7])?
A: significant reduction of viral RNA levels

Q: And the “Infectious virus titers in the culture supernatant” value (LACV [8])?
A: dose-dependent reduction in infectious virus titers

Q: What about the “Number of LACV Gc protein-positive cells” value (LACV [9]) of the same compound?
A: reduced the number of LACV Gc protein-positive cells at lower concentrations compared to treatment with either T-705 or RBV

Q: And the “Viral growth (viral titers in the supernatants)” value (LACV [10])?
A: reduced the LACV-induced CPE and viral growth in SH-SY5Y

Q: And the “Mice rescued from lethal infection” value (LACV [11]; 30 mg/kg/day s.c. q.d. until 7 dpi, LACV i.p.)?
A: 20%

Q: And the “Viral titers in the brain” value (LACV [11]; 60 mg/kg s.c., 6 and 7 dpi, plaque assay, versus vehicle)?
A: lower, although not significantly

Q: And the “Mice rescued from lethal infection” value (LACV [11]; 60 mg/kg/day s.c. q.d. until 7 dpi, LACV i.p.)?
A: 31%

Q: And the “Viral RNA levels in the spleen” value (LACV [11]; 60 mg/kg/day s.c., 6 and 7 dpi)?
A: significantly reduced viral RNA levels

Q: What about the “Viral RNA in the brain” value (LACV [11]; 60 mg/kg/day s.c., 6 and 7 dpi, versus vehicle) of the same compound?
A: significantly lower levels of viral RNA in the brain

Q: What about the “Viral RNA levels in the blood” value (LACV [11]; 60 mg/kg/day s.c., 6 dpi) of the same compound?
A: significantly reduced viral RNA levels

Q: What about the “Viral RNA levels in the blood” value (LACV [11]; 60 mg/kg/day s.c., 7 dpi) of the same compound?
A: non-significant reduction in viral RNA levels

Q: And the “Survival of LACV-infected mice” value (LACV [11]; 3, 10, 30, or 60 mg/kg/day s.c. q.d. from 4 h before infection until 7 dpi, LACV i.p.)?
A: significantly extended the survival

Q: With `NC(=O)c1ncn([C@@H]2O[C@H](CO)[C@@H](O)[C@H]2O)n1` [RBV, Ribavirin, reference compound] as the compound, how does the “Efficacy in the in vivo infection model” value (LACV [1]) read?
A: efficacy is limited in the in vivo infection model

Q: And the “Infectious virus titers in the culture supernatant” value (LACV [8])?
A: significantly reduced viral titers

Q: What about the “Viral growth (viral titers in the supernatants)” value (LACV [10]) of the same compound?
A: significantly reduced viral titers

Q: For `NC(=O)c1nc(F)c[nH]c1=O` [T-705, favipiravir, reference compound], which “Fold change (/original stock)” value (LACV [2]) is on record?
A: 1.00

Q: And the “Fold change (/passage control)” value (LACV [2])?
A: 0.86

Q: What about the “Fold change (/original stock)” value (LACV passage control WT [4]) of the same compound?
A: 1.16

Q: And the “Fold change (/passage control)” value (LACV passage control WT [4])?
A: 1.00

Q: And the “Viral RNA levels, post-entry treatment” value (LACV [5])?
A: significantly reduced the viral RNA levels

Q: And the “Efficacy against LACV in animal models” value (LACV [1])?
A: limited in animal models
